Anti-infective test results gathered from many reports (values: NIAID ChemDB through PubChem).

Shared fields: whole-cell or culture tests; organism: Hepatitis B virus; method: PCR; endpoint: EC50

ECn is the concentration giving n% inhibition of infection, replication or growth. Lines come from different laboratories, so protocols vary. Two numbers with a dash give a range or band.

compound,cells,value
COc1ccc(C(=O)N(C)CC(=O)Nc2ccc(Cl)cc2Cl)cc1,HepG2.2.15,4.9 µM
COc1ccnc(-n2cc(S(=O)(=O)Nc3ccc4c(C(=O)Nc5ccc(F)c(Cl)c5)n(C)nc4c3)cn2)c1,HepAD38,<100 µM
COc1ccc(-n2c(C(=O)NCc3ccc(OC)c(C)c3)c3n(c2=O)CCN(C(=O)c2ccc(Cl)c(Cl)c2)C3)cc1,HepG2.117,0.5–5 µM
Cn1nc2cc(NCS(=O)(=O)NCCOCCO)ccc2c1C(=O)Nc1ccc(F)c(Cl)c1,HepAD38,100–1000 µM
C[C@H]1CN(Cc2ccccc2)C(=O)c2c3n(c(=O)n2C1)CCN(C(=O)c1ccc(Br)c(Cl)c1)C3,HepG2.117,0.5–5 µM
CCOC(=O)C1=C(CN2CC(F)(F)[C@@H]3[C@H]2CON3C[C@H](O)C(CC)(CC)C(=O)O)NC(c2nccs2)=N[C@H]1c1cccc(F)c1C,HepG2.2.15,0.0195 µM
Cn1nc2cc(NS(=O)(=O)N3CC[C@H](O)C3)ccc2c1C(=O)Nc1ccc(F)c(Cl)c1,HepAD38,100–1000 µM
O=C(NCc1ccccc1-c1ccccn1)c1c2n(c(=O)n1-c1ccc(OC3CC3)cc1)CCN(C(=O)c1ccc(Br)c(Cl)c1)C2,HepG2.117,<0.1 µM
Cn1nc2cc(NS(=O)(=O)NCc3cnn(-c4ccccn4)c3)ccc2c1C(=O)Nc1ccc(F)c(Cl)c1,HepAD38,100–1000 µM
CCOC(=O)C1=C(CN2CC(F)(F)[C@H]3[C@@H]2CCN3C[C@@H](O)C(C)(C)C(=O)O)NC(c2nccs2)=N[C@H]1c1cccc(F)c1C#N,HepG2.2.15,0.0133 µM
C[C@H]1Cn2c(c3n(c2=O)C[C@@H](F)CN(Cc2ccccc2)C3=O)CN1C(=O)c1ccc(Br)c(Cl)c1,HepG2.117,<0.1 µM
COC(=O)N1CC(Cn2cc(S(=O)(=O)Nc3ccc4c(C(=O)Nc5ccc(F)c(Cl)c5)n(C)nc4c3)cn2)C1,HepAD38,>1000 µM
COC(=O)C1=C(CN2CC(F)(F)[C@@H]3[C@H]2CON3C[C@H](O)C(C)(C)C(=O)O)NC(c2nccs2)=N[C@H]1c1ccc(F)c(F)c1C,HepG2.2.15,0.045 µM
Cn1nc2cc(NS(=O)(=O)N3C4CCC3CC(O)C4)ccc2c1C(=O)Nc1ccc(F)c(Cl)c1,HepAD38,100–1000 µM
CCOC(=O)C1=C(CN2CC(F)(F)[C@@H]3[C@H]2CON3C[C@@H](O)C(CC)(CC)C(=O)O)NC(c2nccs2)=N[C@H]1c1cccc(F)c1C,HepG2.2.15,0.013 µM
CC(C)Oc1ccc(-n2c(C(=O)NCc3ccccc3)c3n(c2=O)CCN(C(=O)c2ccc(Br)c(Cl)c2)C3)cc1,HepG2.117,0.1–0.5 µM
CN(CC(=O)Nc1ccc(Cl)cc1Cl)C(=O)c1ccc(F)cc1,HepG2.2.15,32 µM
C[C@@H]1Cc2nn3c(c2CN1C(=O)c1ccc(Cl)c(C#N)c1)C(=O)N([C@H](C)c1cccc(OC(F)F)c1)CC3,HepG2.117,0.082 µM
O=C(NCc1ccccc1-c1ncccn1)c1c2n(c(=O)n1-c1ccc(-n3cccn3)cc1)CCN(C(=O)c1ccc(Br)c(Cl)c1)C2,HepG2.117,<0.1 µM
C[C@@H]1Cc2nn3c(c2CN1C(=O)c1ccc(Cl)c(C#N)c1)C(=O)N([C@H](C)c1cccc(C(F)(F)F)c1)CC3,HepG2.117,0.143 µM
CCOC(=O)C1=C(CN2CC(F)(F)[C@@H]3[C@H]2CON3C[C@@H](O)[C@@H](CC)C(=O)O)NC(c2nccs2)=N[C@H]1c1cccc(F)c1C,HepG2.2.15,0.068 µM
CN(CC(=O)Nc1ccc(Cl)cc1Cl)C(=O)c1cccnc1,HepG2.2.15,41 µM
C[C@@H]1Cc2nn3c(c2CN1C(=O)c1ccc(Cl)c(C#N)c1)C(=O)N([C@H](C)c1cccc(OC(F)(F)F)c1)CC3,HepG2.117,0.062 µM
C[C@@H]1CN(Cc2ccccc2)C(=O)c2c3n(c(=O)n2C1)CCN(C(=O)c1ccc(Br)c(Cl)c1)C3,HepG2.117,0.5–5 µM
CCOC(=O)C1=C(CN2CC(F)(F)[C@H]3[C@@H]2CCN3C[C@@](C)(O)C(=O)O)NC(c2nccs2)=N[C@H]1c1cccc(F)c1F,HepG2.2.15,0.098 µM
Cn1nc2cc(NS(=O)(=O)c3nccs3)ccc2c1C(=O)Nc1ccc(F)c(Cl)c1,HepAD38,100–1000 µM
CCOC(=O)C1=C(CN2CC(F)(F)[C@@H]3[C@H]2CON3CC[C@](C)(O)C(=O)O)NC(c2nccs2)=N[C@H]1c1ccc(F)c(F)c1Cl,HepG2.2.15,0.073 µM
C[C@@H]1Cc2nn3c(c2CN1C(=O)c1ccc(Cl)c(C#N)c1)C(=O)N([C@@H](C)c1ccnc(C(F)(F)F)c1)CC3,HepG2.117,0.196 µM
CCOC(=O)C1=C(CN2CC(F)(F)[C@@H]3[C@H]2CON3C[C@@H](OC)C(C)(C)C(=O)O)NC(c2nccs2)=N[C@H]1c1ccc(F)c(F)c1F,HepG2.2.15,0.004 µM
CN(CC(=O)Nc1ccc(Cl)cc1Cl)C(=O)c1ccccn1,HepG2.2.15,39 µM

3 of the rows above, restated:

compound	cells	value
Cn1nc2cc(NS(=O)(=O)NCc3cnn(-c4ccccn4)c3)ccc2c1C(=O)Nc1ccc(F)c(Cl)c1	HepAD38	100–1000 µM
COc1ccc(-n2c(C(=O)NCc3ccc(OC)c(C)c3)c3n(c2=O)CCN(C(=O)c2ccc(Cl)c(Cl)c2)C3)cc1	HepG2.117	0.5–5 µM
Cn1nc2cc(NS(=O)(=O)N3CC[C@H](O)C3)ccc2c1C(=O)Nc1ccc(F)c(Cl)c1	HepAD38	100–1000 µM